This series has as its system Arabidopsis Col‐0 and fer‐4 seedlings. The series can be described thus: Growth of Arabidopsis seedlings (root length, shoot fresh weight). The note with it: Col-0 vs fer-4, 5 μM for 3 days.

For `O=C(O)c1cc(N(Cc2ccccc2O)Cc2cc(O)ccc2O)ccc1O` [Lavendustin A], the “Dependence on FER of the effect on root and shoot growth” value is recorded as “partly dependent on FER”.

The values are drawn from publication PMC9829398 (Plant Biotechnology Journal, 2022).
